Measured values published in ChEMBL document CHEMBL4811225 (J Med Chem, 2021).

Sequences of proteins named here, by UniProt entry; tags and fusion partners are left off. Residues count along the entry.
UniProt P04757, 26-499 limits assumed: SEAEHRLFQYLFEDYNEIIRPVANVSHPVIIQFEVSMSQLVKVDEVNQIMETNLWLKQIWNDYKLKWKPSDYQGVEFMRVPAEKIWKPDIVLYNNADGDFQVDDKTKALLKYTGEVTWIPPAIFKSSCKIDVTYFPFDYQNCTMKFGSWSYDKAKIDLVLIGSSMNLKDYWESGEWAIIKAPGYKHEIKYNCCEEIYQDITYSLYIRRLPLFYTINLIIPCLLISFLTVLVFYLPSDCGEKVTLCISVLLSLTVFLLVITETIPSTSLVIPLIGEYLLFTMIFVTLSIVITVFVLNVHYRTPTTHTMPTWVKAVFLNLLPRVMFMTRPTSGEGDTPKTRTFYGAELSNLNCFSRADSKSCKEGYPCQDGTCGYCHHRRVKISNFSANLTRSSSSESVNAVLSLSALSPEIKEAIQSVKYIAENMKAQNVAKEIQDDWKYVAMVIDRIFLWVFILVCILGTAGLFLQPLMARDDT
UniProt P12392, 21-495 limits assumed: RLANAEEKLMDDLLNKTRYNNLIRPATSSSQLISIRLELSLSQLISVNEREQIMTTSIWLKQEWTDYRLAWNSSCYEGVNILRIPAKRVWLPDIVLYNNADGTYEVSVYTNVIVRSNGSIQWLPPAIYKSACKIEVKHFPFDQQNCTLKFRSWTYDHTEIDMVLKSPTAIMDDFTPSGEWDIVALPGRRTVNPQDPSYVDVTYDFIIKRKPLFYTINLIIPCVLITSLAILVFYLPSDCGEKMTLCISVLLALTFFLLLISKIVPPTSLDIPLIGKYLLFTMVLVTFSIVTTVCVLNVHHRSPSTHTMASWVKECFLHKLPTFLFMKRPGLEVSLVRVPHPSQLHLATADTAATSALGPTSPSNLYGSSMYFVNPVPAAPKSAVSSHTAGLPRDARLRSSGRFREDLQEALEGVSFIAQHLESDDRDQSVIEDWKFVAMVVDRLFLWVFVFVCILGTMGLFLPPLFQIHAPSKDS
UniProt P43143, 31-493 limits assumed: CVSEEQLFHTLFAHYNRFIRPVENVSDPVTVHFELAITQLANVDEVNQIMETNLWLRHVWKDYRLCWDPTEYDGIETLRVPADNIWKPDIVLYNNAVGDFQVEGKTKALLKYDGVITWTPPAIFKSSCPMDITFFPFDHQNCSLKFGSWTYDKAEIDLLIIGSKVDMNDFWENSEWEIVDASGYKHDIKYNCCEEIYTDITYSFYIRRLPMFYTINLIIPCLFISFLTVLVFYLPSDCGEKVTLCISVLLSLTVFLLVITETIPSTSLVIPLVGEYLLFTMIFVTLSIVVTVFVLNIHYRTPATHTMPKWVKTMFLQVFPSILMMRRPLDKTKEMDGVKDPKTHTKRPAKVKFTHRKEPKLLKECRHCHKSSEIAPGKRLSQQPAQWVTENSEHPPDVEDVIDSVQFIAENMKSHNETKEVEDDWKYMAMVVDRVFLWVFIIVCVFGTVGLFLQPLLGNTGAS
UniProt P30926, 22-498 limits assumed: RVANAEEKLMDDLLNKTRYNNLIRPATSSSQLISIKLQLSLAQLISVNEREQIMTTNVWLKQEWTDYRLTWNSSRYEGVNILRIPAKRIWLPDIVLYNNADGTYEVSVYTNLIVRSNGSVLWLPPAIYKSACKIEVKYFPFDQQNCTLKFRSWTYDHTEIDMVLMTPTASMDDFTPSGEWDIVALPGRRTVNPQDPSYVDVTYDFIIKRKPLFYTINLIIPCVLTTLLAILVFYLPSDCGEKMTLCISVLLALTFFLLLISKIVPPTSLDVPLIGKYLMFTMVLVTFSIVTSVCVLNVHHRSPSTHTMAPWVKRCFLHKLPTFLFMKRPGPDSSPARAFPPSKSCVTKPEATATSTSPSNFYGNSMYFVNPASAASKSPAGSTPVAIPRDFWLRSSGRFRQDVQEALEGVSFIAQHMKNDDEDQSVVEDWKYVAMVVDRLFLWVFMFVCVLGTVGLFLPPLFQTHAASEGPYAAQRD
UniProt P32297, 32-505 limits assumed: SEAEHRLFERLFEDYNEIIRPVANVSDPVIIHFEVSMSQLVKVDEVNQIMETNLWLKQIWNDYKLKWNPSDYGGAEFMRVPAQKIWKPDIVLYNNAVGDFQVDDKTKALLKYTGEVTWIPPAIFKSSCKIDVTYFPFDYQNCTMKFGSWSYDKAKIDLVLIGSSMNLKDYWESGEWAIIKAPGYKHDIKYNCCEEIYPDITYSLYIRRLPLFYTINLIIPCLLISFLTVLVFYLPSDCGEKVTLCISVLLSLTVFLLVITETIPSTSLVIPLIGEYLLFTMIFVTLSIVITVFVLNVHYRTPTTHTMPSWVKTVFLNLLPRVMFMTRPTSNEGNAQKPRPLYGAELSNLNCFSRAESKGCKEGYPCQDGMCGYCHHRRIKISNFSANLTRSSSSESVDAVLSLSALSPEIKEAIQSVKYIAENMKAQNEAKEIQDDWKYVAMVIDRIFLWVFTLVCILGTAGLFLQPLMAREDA
UniProt Q15825, 26-494 limits assumed: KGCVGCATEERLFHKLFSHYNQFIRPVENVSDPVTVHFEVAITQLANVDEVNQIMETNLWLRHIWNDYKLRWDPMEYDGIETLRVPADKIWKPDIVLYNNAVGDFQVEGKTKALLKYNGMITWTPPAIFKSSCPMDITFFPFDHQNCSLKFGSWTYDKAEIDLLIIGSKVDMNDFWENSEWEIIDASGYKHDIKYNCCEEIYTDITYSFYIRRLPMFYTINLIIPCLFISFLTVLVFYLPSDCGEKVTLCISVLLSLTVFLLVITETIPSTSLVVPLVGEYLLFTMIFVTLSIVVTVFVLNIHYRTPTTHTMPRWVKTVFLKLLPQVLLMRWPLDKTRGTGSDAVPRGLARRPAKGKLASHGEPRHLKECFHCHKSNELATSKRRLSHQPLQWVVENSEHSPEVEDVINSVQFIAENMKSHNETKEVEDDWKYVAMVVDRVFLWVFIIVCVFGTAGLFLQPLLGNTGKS

Assays:
[1] = molecular target: Nicotinic acetylcholine receptor alpha6/alpha3/beta4 (Rattus norvegicus, UniProt P04757+P12392+P43143); conditions: oocyte
[2] = molecular target: Nicotinic acetylcholine receptor alpha6/alpha3/beta4 (Homo sapiens, UniProt P30926+P32297+Q15825); conditions: oocyte

Row | Structure (SMILES) | IC50 [1] | IC50 [2]
1 | CC(C)C[C@@H]1NC(=O)[C@H](CC(=O)O)NC(=O)[C@@H]2CCCN2C(=O)[C@H](Cc2cnc[nH]2)NC(=O)[C@H](CC(N)=O)NC(=O)[C@H](C(C)C)NC(=O)[C@H](CO)NC(=O)[C@@H]2CSSC[C@H](NC(=O)CN)C(=O)N[C@@H](CSSC[C@@H](C(N)=O)NC1=O)C(=O)N[C@@H](CO)C(=O)N[C@@H](Cc1cnc[nH]1)C(=O)N1CCC[C@H]1C(=O)N[C@@H](C)C(=O)N2 | 474 nM | 12.8 nM
2 | CC(C)C[C@@H]1NC(=O)[C@H](CCC(=O)O)NC(=O)[C@@H]2CCCN2C(=O)[C@H](Cc2cnc[nH]2)NC(=O)[C@H](CC(N)=O)NC(=O)[C@H](CC(C)C)NC(=O)[C@H](CO)NC(=O)[C@@H]2CSSC[C@H](NC(=O)CN)C(=O)N[C@@H](CSSC[C@@H](C(N)=O)NC1=O)C(=O)N[C@@H](CO)C(=O)N[C@@H](Cc1cnc[nH]1)C(=O)N1CCC[C@H]1C(=O)N[C@@H](C)C(=O)N2 | 63.8 nM | 9.64 nM
3 | CC(C)C[C@@H]1NC(=O)[C@H](CCC(=O)O)NC(=O)[C@@H]2CCCN2C(=O)[C@H](Cc2cnc[nH]2)NC(=O)[C@H](CC(N)=O)NC(=O)[C@H](C(C)C)NC(=O)[C@H](Cc2ccc(O)cc2)NC(=O)[C@@H]2CSSC[C@H](NC(=O)CN)C(=O)N[C@@H](CSSC[C@@H](C(N)=O)NC1=O)C(=O)N[C@@H](CO)C(=O)N[C@@H](Cc1cnc[nH]1)C(=O)N1CCC[C@H]1C(=O)N[C@@H](C)C(=O)N2 | 86.9 nM | 30.6 nM
4 | CC(C)C[C@@H]1NC(=O)[C@H](CCC(=O)O)NC(=O)[C@@H]2CCCN2C(=O)[C@H](Cc2cnc[nH]2)NC(=O)[C@H](CC(N)=O)NC(=O)[C@H](C(C)C)NC(=O)[C@H](CO)NC(=O)[C@@H]2CSSC[C@H](NC(=O)CN)C(=O)N[C@@H](CSSC[C@@H](C(N)=O)NC1=O)C(=O)N[C@@H](C(C)C)C(=O)N[C@@H](Cc1cnc[nH]1)C(=O)N1CCC[C@H]1C(=O)N[C@@H](C)C(=O)N2 | 1050 nM | 29.4 nM
5 | CC(C)C[C@@H]1NC(=O)[C@H](CCC(=O)O)NC(=O)[C@@H]2CCCN2C(=O)[C@H](Cc2cnc[nH]2)NC(=O)[C@H](CC(N)=O)NC(=O)[C@H](C(C)C)NC(=O)[C@H](CC(=O)O)NC(=O)[C@@H]2CSSC[C@H](NC(=O)CN)C(=O)N[C@@H](CSSC[C@@H](C(N)=O)NC1=O)C(=O)N[C@@H](CO)C(=O)N[C@@H](Cc1cnc[nH]1)C(=O)N1CCC[C@H]1C(=O)N[C@@H](C)C(=O)N2 | > 10000 nM | 1410 nM
6 | CC(C)C[C@@H]1NC(=O)[C@H](CCC(=O)O)NC(=O)[C@H](C)NC(=O)[C@H](Cc2cnc[nH]2)NC(=O)[C@H](CC(N)=O)NC(=O)[C@H](C(C)C)NC(=O)[C@H](CO)NC(=O)[C@@H]2CSSC[C@H](NC(=O)CN)C(=O)N[C@@H](CSSC[C@@H](C(N)=O)NC1=O)C(=O)N[C@@H](CO)C(=O)N[C@@H](Cc1cnc[nH]1)C(=O)N1CCC[C@H]1C(=O)N[C@@H](C)C(=O)N2 | 381 nM | 73.3 nM
7 | CC(C)C[C@@H]1NC(=O)[C@H](CCC(=O)O)NC(=O)[C@@H]2CCCN2C(=O)[C@H](Cc2cnc[nH]2)NC(=O)[C@H](CC(N)=O)NC(=O)[C@H](C)NC(=O)[C@H](CO)NC(=O)[C@@H]2CSSC[C@H](NC(=O)CN)C(=O)N[C@@H](CSSC[C@@H](C(N)=O)NC1=O)C(=O)N[C@@H](CO)C(=O)N[C@@H](Cc1cnc[nH]1)C(=O)N1CCC[C@H]1C(=O)N[C@@H](C)C(=O)N2 | 137 nM | 22.1 nM
8 | CCCC[C@@H]1NC(=O)[C@H](CCC(=O)O)NC(=O)[C@@H]2CCCN2C(=O)[C@H](Cc2cnc[nH]2)NC(=O)[C@H](CC(N)=O)NC(=O)[C@H](C(C)C)NC(=O)[C@H](CO)NC(=O)[C@@H]2CSSC[C@H](NC(=O)CN)C(=O)N[C@@H](CSSC[C@@H](C(N)=O)NC1=O)C(=O)N[C@@H](CO)C(=O)N[C@@H](Cc1cnc[nH]1)C(=O)N1CCC[C@H]1C(=O)N[C@@H](C)C(=O)N2 | 284 nM | 21 nM
9 | CC(C)C[C@@H]1NC(=O)[C@H](CCC(=O)O)NC(=O)[C@@H]2CCCN2C(=O)[C@H](Cc2cnc[nH]2)NC(=O)[C@H](CC(N)=O)NC(=O)[C@H](C(C)C)NC(=O)[C@H](CO)NC(=O)[C@@H]2CSSC[C@H](NC(=O)CN)C(=O)N[C@@H](CSSC[C@@H](C(N)=O)NC1=O)C(=O)N[C@@H](CO)C(=O)N[C@@H](CC(N)=O)C(=O)N1CCC[C@H]1C(=O)N[C@@H](C)C(=O)N2 | 64.9 nM | 29.8 nM
10 | CC(C)C[C@@H]1NC(=O)[C@H](CCC(=O)O)NC(=O)[C@H](CO)NC(=O)[C@H](Cc2cnc[nH]2)NC(=O)[C@H](CC(N)=O)NC(=O)[C@H](C(C)C)NC(=O)[C@H](CO)NC(=O)[C@@H]2CSSC[C@H](NC(=O)CN)C(=O)N[C@@H](CSSC[C@@H](C(N)=O)NC1=O)C(=O)N[C@@H](CO)C(=O)N[C@@H](Cc1cnc[nH]1)C(=O)N1CCC[C@H]1C(=O)N[C@@H](C)C(=O)N2 | 119 nM | 23.2 nM
11 | CC(C)C[C@@H]1NC(=O)[C@H](CCCNC(=N)N)NC(=O)[C@@H]2CCCN2C(=O)[C@H](Cc2cnc[nH]2)NC(=O)[C@H](CC(N)=O)NC(=O)[C@H](C(C)C)NC(=O)[C@H](CO)NC(=O)[C@@H]2CSSC[C@H](NC(=O)CN)C(=O)N[C@@H](CSSC[C@@H](C(N)=O)NC1=O)C(=O)N[C@@H](CO)C(=O)N[C@@H](Cc1cnc[nH]1)C(=O)N1CCC[C@H]1C(=O)N[C@@H](C)C(=O)N2 | 1040 nM | 49.4 nM
12 | CC[C@H](C)[C@@H]1NC(=O)[C@@H]2CSSC[C@@H](C(N)=O)NC(=O)[C@H](CC(C)C)NC(=O)[C@H](CCC(=O)O)NC(=O)[C@@H]3CCCN3C(=O)[C@H](Cc3cnc[nH]3)NC(=O)[C@H](CC(N)=O)NC(=O)[C@H](C(C)C)NC(=O)[C@H](CO)NC(=O)[C@H](CSSC[C@H](NC(=O)CN)C(=O)N2)NC(=O)[C@H](C)NC(=O)[C@@H]2CCCN2C(=O)[C@H](Cc2cnc[nH]2)NC1=O | 2150 nM | 36.5 nM
13 | CC(C)C[C@@H]1NC(=O)[C@H](CCC(=O)O)NC(=O)[C@@H]2CCCN2C(=O)[C@H](Cc2cnc[nH]2)NC(=O)[C@H](CC(N)=O)NC(=O)[C@H](C(C)C)NC(=O)[C@H](CCCNC(=N)N)NC(=O)[C@@H]2CSSC[C@H](NC(=O)CN)C(=O)N[C@@H](CSSC[C@@H](C(N)=O)NC1=O)C(=O)N[C@@H](CO)C(=O)N[C@@H](Cc1cnc[nH]1)C(=O)N1CCC[C@H]1C(=O)N[C@@H](C)C(=O)N2 | 9750 nM | 96.8 nM
14 | CC(C)C[C@@H]1NC(=O)[C@H](CCC(=O)O)NC(=O)[C@@H]2CCCN2C(=O)[C@H](Cc2cnc[nH]2)NC(=O)[C@H](CCC(=O)O)NC(=O)[C@H](C(C)C)NC(=O)[C@H](CO)NC(=O)[C@@H]2CSSC[C@H](NC(=O)CN)C(=O)N[C@@H](CSSC[C@@H](C(N)=O)NC1=O)C(=O)N[C@@H](CO)C(=O)N[C@@H](Cc1cnc[nH]1)C(=O)N1CCC[C@H]1C(=O)N[C@@H](C)C(=O)N2 | 2340 nM | 70.9 nM
15 | CC(C)[C@@H]1NC(=O)[C@H](CCC(=O)O)NC(=O)[C@@H]2CCCN2C(=O)[C@H](Cc2cnc[nH]2)NC(=O)[C@H](CC(N)=O)NC(=O)[C@H](C(C)C)NC(=O)[C@H](CO)NC(=O)[C@@H]2CSSC[C@H](NC(=O)CN)C(=O)N[C@@H](CSSC[C@@H](C(N)=O)NC1=O)C(=O)N[C@@H](CO)C(=O)N[C@@H](Cc1cnc[nH]1)C(=O)N1CCC[C@H]1C(=O)N[C@@H](C)C(=O)N2 | 59.8 nM | 5.7 nM
16 | CC(C)C[C@@H]1NC(=O)[C@H](CCC(=O)O)NC(=O)[C@@H]2CCCN2C(=O)[C@H](Cc2cnc[nH]2)NC(=O)[C@H](CC(N)=O)NC(=O)[C@H](C(C)C)NC(=O)[C@H](CO)NC(=O)[C@@H]2CSSC[C@H](NC(=O)CN)C(=O)N[C@@H](CSSC[C@@H](C(N)=O)NC1=O)C(=O)N[C@@H](CC(C)C)C(=O)N[C@@H](Cc1cnc[nH]1)C(=O)N1CCC[C@H]1C(=O)N[C@@H](C)C(=O)N2 | 4150 nM | 86.2 nM
17 | CC(C)C[C@@H]1NC(=O)[C@H](CCC(=O)O)NC(=O)[C@@H]2CCCN2C(=O)[C@H](Cc2cnc[nH]2)NC(=O)[C@H](CCCCN)NC(=O)[C@H](C(C)C)NC(=O)[C@H](CO)NC(=O)[C@@H]2CSSC[C@H](NC(=O)CN)C(=O)N[C@@H](CSSC[C@@H](C(N)=O)NC1=O)C(=O)N[C@@H](CO)C(=O)N[C@@H](Cc1cnc[nH]1)C(=O)N1CCC[C@H]1C(=O)N[C@@H](C)C(=O)N2 | 44.5 nM | 1.46 nM
18 | CC(C)C[C@@H]1NC(=O)[C@H](CC(C(=O)O)C(=O)O)NC(=O)[C@@H]2CCCN2C(=O)[C@H](Cc2cnc[nH]2)NC(=O)[C@H](CC(N)=O)NC(=O)[C@H](C(C)C)NC(=O)[C@H](CO)NC(=O)[C@@H]2CSSC[C@H](NC(=O)CN)C(=O)N[C@@H](CSSC[C@@H](C(N)=O)NC1=O)C(=O)N[C@@H](CO)C(=O)N[C@@H](Cc1cnc[nH]1)C(=O)N1CCC[C@H]1C(=O)N[C@@H](C)C(=O)N2 | 430 nM | 18.2 nM
19 | CC(C)[C@@H]1NC(=O)[C@H](CO)NC(=O)[C@@H]2CSSC[C@H](NC(=O)CN)C(=O)N[C@@H](CSSC[C@@H](C(N)=O)NC(=O)[C@H](CCCNC(=N)N)NC(=O)[C@H](CCC(=O)O)NC(=O)[C@@H]3CCCN3C(=O)[C@H](Cc3cnc[nH]3)NC(=O)[C@H](CC(N)=O)NC1=O)C(=O)N[C@@H](CO)C(=O)N[C@@H](Cc1cnc[nH]1)C(=O)N1CCC[C@H]1C(=O)N[C@@H](C)C(=O)N2 | 371 nM | 31.9 nM
20 | CC(C)C[C@@H]1NC(=O)[C@H](CCC(=O)O)NC(=O)[C@@H]2CCCN2C(=O)[C@H](Cc2cnc[nH]2)NC(=O)[C@H](CC(=O)O)NC(=O)[C@H](C(C)C)NC(=O)[C@H](CO)NC(=O)[C@@H]2CSSC[C@H](NC(=O)CN)C(=O)N[C@@H](CSSC[C@@H](C(N)=O)NC1=O)C(=O)N[C@@H](CO)C(=O)N[C@@H](Cc1cnc[nH]1)C(=O)N1CCC[C@H]1C(=O)N[C@@H](C)C(=O)N2 | 6610 nM | 124 nM
21 | CC(C)C[C@@H]1NC(=O)[C@H](CCC(=O)O)NC(=O)[C@@H]2CCCN2C(=O)[C@H](Cc2cnc[nH]2)NC(=O)[C@H](CC(N)=O)NC(=O)[C@H](C(C)C)NC(=O)[C@H](C)NC(=O)[C@@H]2CSSC[C@H](NC(=O)CN)C(=O)N[C@@H](CSSC[C@@H](C(N)=O)NC1=O)C(=O)N[C@@H](CO)C(=O)N[C@@H](Cc1cnc[nH]1)C(=O)N1CCC[C@H]1C(=O)N[C@@H](C)C(=O)N2 | 399 nM | 60.5 nM
